Results of unrelated studies side by side (data: NIAID ChemDB).

Common to all: growth or infection tests

Lines come from different laboratories, so protocols vary. An empty or dashed field is not shown. ECn is the concentration giving n% inhibition of infection, replication or growth. MIC50, MIC90 and the like: level of inhibition, or share of isolates inhibited. Percent inhibition refers to the dose given; in toxicity tests it is the harm to the cells.

smiles,organism,strain or isolate,cells,method,measure,dose,result
CCOC(=O)c1sc(SC)c(C#N)c1N,Trichophyton mentagrophytes,A-280,,,MIC,,>100 µg/mL
Cc1cc(NS(=O)(=O)c2ccc(NC(=S)Nc3ccccn3)cc2)no1,SIV,,CEM174,syncytia,EC50,,8 µM
CC(C)Nc1nc2cc(Cl)c(Cl)cc2n1[C@H]1O[C@@H](CO)[C@H](O)[C@@H]1O,Rhesus cytomegalovirus,,HFF,plaque count,EC50,,48 µM
CCOC(=O)c1sc2cc(-c3ccc(F)cc3)oc(=O)c2c1N,Trichophyton mentagrophytes,A-280,,,MIC,,>100 µg/mL
Nc1nc(=O)n(COCCO)cc1[N+](=O)[O-],Vesicular stomatitis virus,,PRK,cytopathic effect,EC50,,>400 µg/mL
N#Cc1cc([N+](=O)[O-])ccc1Oc1ccc(Cl)c(Cl)c1,Coxsackie virus,TYPE A21,VERO,,inhibition,0.78 µg/mL,>99%
CCCOC(=O)c1ccc(NC(=S)Nc2ccc(S(=O)(=O)Nc3cc(C)on3)cc2)cc1,SIV,,CEM174,syncytia,EC50,,4.5 µM
CCCCCCCCN=C(N)c1ncn([C@@H]2O[C@H](CO)[C@@H](O)[C@H]2O)n1,Sandfly fever virus,Sicilian,VERO,cytopathic effect,EC50,,339 µg/mL
CCCc1cc(=O)oc2cc(OS(=O)(=O)c3ccc(C)cc3)cc(O)c12,Measles virus,MO6,CV-1,cytopathic effect,EC50,,0.6 µg/mL
CCC(=O)C(CCCCCCc1ccc(O)cc1Cl)C(=O)CC,Equine herpesvirus 4,,,,MIC,,>50 µg/mL
CN=C(N)c1ncn([C@@H]2O[C@H](CO)[C@@H](O)[C@H]2O)n1,Sandfly fever virus,Sicilian,VERO,cytopathic effect,EC50,,104 µg/mL
CSc1cc(-c2ccc(-c3cccnc3)cc2)c(C(=O)O)s1,Trichophyton mentagrophytes,A-280,,,MIC,,>100 µg/mL
Nc1cnn([C@@H]2O[C@H](CO)[C@@H](O)[C@H]2O)c(=O)n1,Adenovirus,TYPE 5,HEP-2,,inhibition,125 µg/mL,100%
OC[C@H]1O[C@@H](n2c(Br)nc3cc(Cl)c(Cl)cc32)[C@H](O)[C@@H]1O,Human cytomegalovirus,,MRC-5,virus yield,EC50,,0.08 µM
CCCc1cc(=O)oc2cc(OC(=O)C(C)(C)C)c3c(c12)OC(C)(C)C=C3,Measles virus,MO6,CV-1,cytopathic effect,EC50,,>100 µg/mL
CC(N)C12CC3CC(CC(C3)C1)C2,Influenza A virus,H3N2 10 french isolates,MDCK,ELISA,EC50,,9.3 µg/mL
Cc1cn(COCCO)c(=O)[nH]c1=O,Vesicular stomatitis virus,,PRK,cytopathic effect,EC50,,>400 µg/mL
CCOC(=O)c1ccc(OCCC2CCN(c3ccc(C)nn3)CC2)cc1,Rhinovirus,6669-CV39 (ICAM-1 receptor group 61),KB,neutral red,EC50,,2.846 µM
Nc1nc2c(ncn2COC(CO)CO)c(=O)[nH]1,Rat cytomegalovirus,,HFF,plaque count,EC50,,31 µM
S=c1cc(-c2ccccc2)s[nH]1,Measles virus,Edmonston,HEP-2,plaque count,EC50,,>90 µM
NC(=O)CCC(N=C(N)c1ncn([C@@H]2O[C@H](CO)[C@@H](O)[C@H]2O)n1)C(=O)O,Sandfly fever virus,Sicilian,VERO,cytopathic effect,EC50,,547 µg/mL
O=c1[nH]cnc2c1ncn2[C@@H]1O[C@H](CO)[C@@H](O)[C@H]1O,Pneumocystis carinii,,,,inhibition,100 µM,30%
CC/C(=C\CCc1ccc2c(c1)OCO2)CCC1CCCCC1=O,Equine herpesvirus 4,,,,MIC,,>50 µg/mL
CNC(=O)c1ncn([C@@H]2O[C@H](CO)[C@@H](O)[C@H]2O)n1,Sandfly fever virus,Sicilian,VERO,cytopathic effect,EC50,,>320 µg/mL
CCOC(=O)c1sc2cc(-c3ccc(Cl)cc3)oc(=O)c2c1N,Trichophyton mentagrophytes,A-280,,,MIC,,>100 µg/mL
CSc1nsc(-c2ccccn2)c1C#N,Encephalomyocarditis virus,Encephalomyocarditis virus,L929,plaque count,EC50,,10 µM
Cc1cc(NS(=O)(=O)c2ccc(NC(=S)Nc3ccc4ccccc4c3)cc2)no1,SIV,,CEM174,syncytia,EC50,,13.6 µM
COc1ccc(-c2snc(SC)c2C#N)cc1,Measles virus,Edmonston,HEP-2,plaque count,EC50,,>10 µM
CCCc1cc(=O)oc2c3c(c4c(c12)OC(C)(C)[C@H](O)[C@@H]4O)O[C@H](C)[C@@H](C)[C@@H]3O,Measles virus,Chicago-1,CV-1,virus yield,EC50,,<0.3 µg/mL
CC(C)Nc1nc2cc(Cl)c(Cl)cc2n1[C@H]1O[C@@H](CO)[C@H](O)[C@@H]1O,Human cytomegalovirus,C8803,MRC-5,hybridisation,EC50,,0.13 µM
CCOC(=O)c1sc2cc(-c3cccc([N+](=O)[O-])c3)oc(=O)c2c1N,Trichophyton mentagrophytes,A-280,,,MIC,,>100 µg/mL
Nc1ccn([C@@H]2O[C@H](CO)[C@@H](O)[C@@H]2O)c(=O)n1,Herpes simplex virus 1,NOL,,,MIC,,4.4 µg/mL
Cc1cc(NS(=O)(=O)c2ccc(NC(=S)NCc3ccc(F)cc3)cc2)no1,SIV,,CEM174,syncytia,EC50,,9.9 µM
CCC(=O)C(CCCCCCc1cc(OC)c(O)c(OC)c1)C(=O)CC,Equine herpesvirus 4,,,,MIC,,>50 µg/mL
CCC[C@H](O)C[C@@H]1CC[C@H](C)CCCCC(=O)N(C)[C@@H](Cc2ccc(OCCO)cc2)C(=O)O1,Saccharomyces cerevisiae,PDR5,,,MIC,,12.5 µg/mL
Cc1cc(NS(=O)(=O)c2ccc(NC(=S)Nc3ccc(Cl)c(Cl)c3)cc2)no1,SIV,,CEM174,syncytia,EC50,,4.4 µM
CCCc1cc(=O)oc2cc(OS(=O)(=O)c3ccc(C)cc3)cc(OS(=O)(=O)c3ccc(C)cc3)c12,Measles virus,X-1108,CV-1,cytopathic effect,EC50,,6 µg/mL
Nc1nc2c(ncn2COC2COP(=O)(O)OC2)c(=O)[nH]1,Guinea pig herpesvirus,Lymphotropic,GPE,virus yield,EC50,,<0.9 µg/mL
COc1nsc(-c2ccccc2)c1C#N,Measles virus,Edmonston,HEP-2,plaque count,EC50,,>25 µM
CSc1cc(-c2ccc(C)cc2)c(C(=O)O)s1,Trichophyton mentagrophytes,A-280,,,MIC,,>100 µg/mL
Nc1nc2c(ncn2[C@H]2CC[C@@H](CO)O2)c(=O)[nH]1,Duck hepatitis B virus,,Primary duck hepatocytes,,EC50,,0.5 µM
C=CCc1ccc(O)c(OC)c1,Candida tropicalis,2857,,turbidity,MIC90,,500 µg/mL
CCOC(=O)c1sc2cc(-c3cc(F)c(Cl)cc3Cl)oc(=O)c2c1N,Trichophyton mentagrophytes,A-280,,,MIC,,>100 µg/mL
Cc1cc(NS(=O)(=O)c2ccc(NC(=S)Nc3ccccc3F)cc2)no1,SIV,,CEM174,syncytia,EC50,,8.9 µM
Nc1nc2c(nc(N3CCCCC3)n2COCCO)c(=O)[nH]1,Vesicular stomatitis virus,,PRK,cytopathic effect,EC50,,>400 µg/mL
CCOC(=O)c1sc(SC)cc1-c1ccc(-c2cccnc2)cc1,Trichophyton mentagrophytes,A-280,,,MIC,,25 µg/mL
Nc1ncnc2c1ncn2COCCO,Vesicular stomatitis virus,,PRK,cytopathic effect,EC50,,>400 µg/mL
CCC(=O)C(CC/C(=C/CCc1ccc(OC)c(OC)c1)CC)C(=O)CC,Equine herpesvirus 4,,,,MIC,,>50 µg/mL
O[C@@H]1[C@H](O)[C@H](O)CO[C@H]1n1c(Br)nc2cc(Cl)c(Cl)cc21,Rat cytomegalovirus,,HFF,plaque count,EC50,,28.2 µM
COC(=O)N[C@H](C(=O)N1CCCC1c1ncc(-c2ccc(-c3ccc(-c4cnc([C@@H]5CC(C)CN5C(=O)[C@@H](NC(=O)CO)C(C)C)[nH]4)cc3)cc2)[nH]1)C(C)C,Hepatitis C virus,1a,Lunet,luciferase,EC50,,0.0000107 µM

7 of the rows above, restated:

smiles | organism | strain or isolate | cells | method | measure | dose | result
CCCc1cc(=O)oc2cc(OC(=O)C(C)(C)C)c3c(c12)OC(C)(C)C=C3 | Measles virus | MO6 | CV-1 | cytopathic effect | EC50 |  | >100 µg/mL
COC(=O)N[C@H](C(=O)N1CCCC1c1ncc(-c2ccc(-c3ccc(-c4cnc([C@@H]5CC(C)CN5C(=O)[C@@H](NC(=O)CO)C(C)C)[nH]4)cc3)cc2)[nH]1)C(C)C | Hepatitis C virus | 1a | Lunet | luciferase | EC50 |  | 0.0000107 µM
Nc1ccn([C@@H]2O[C@H](CO)[C@@H](O)[C@@H]2O)c(=O)n1 | Herpes simplex virus 1 | NOL |  |  | MIC |  | 4.4 µg/mL
Nc1ncnc2c1ncn2COCCO | Vesicular stomatitis virus |  | PRK | cytopathic effect | EC50 |  | >400 µg/mL
CCC(=O)C(CCCCCCc1ccc(O)cc1Cl)C(=O)CC | Equine herpesvirus 4 |  |  |  | MIC |  | >50 µg/mL
CCCc1cc(=O)oc2cc(OS(=O)(=O)c3ccc(C)cc3)cc(O)c12 | Measles virus | MO6 | CV-1 | cytopathic effect | EC50 |  | 0.6 µg/mL
O=c1[nH]cnc2c1ncn2[C@@H]1O[C@H](CO)[C@@H](O)[C@H]1O | Pneumocystis carinii |  |  |  | inhibition | 100 µM | 30%